Measurements taken from PMC12097015, “Development of MDM2‐Targeting PROTAC for Advancing Bone Regeneration” (Advanced Science, 2025).
The amount applied is not stated for every result.

Test system: hBMSCs
Assay: Bulk RNA-seq of cultured hBMSCs
Format: cell-based, human
Settings: padj<0.05
From the text: ‐Sample Preparation: In accordance with the manufacturer's instructions, total RNA was extracted using Trizol from hBMSCs treated with Nutlin‐3 or CL144 as well as from control cells. Utilizing an Agilent Bioanalyzer RNA ScreenTape kit (Agilent, 5067–5576), the integrity of the RNA (RIN) was verified. All samples with RIN value > 8.0 were used for sequencing.
‐Library Construction: RNA‐seq libraries were constructed according to the manufacturer's instructions for the SRSLY Library Prep kit, which were provided by Claretbio (CBS‐K155B‐24). […] This work fragmented and enriched the mRNA using oligo (dT). After ligating the cDNA fragments to adapters, PCR amplification was performed.
‐Sequencing: The libraries were performed to sequencing on the Nextseq2000 (Illumina) platform, utilizing the SRSLY RNA NanoPlus kit to generate 100 bp paired‐end reads.
‐Data Analysis: FastQC was used to trim the adaptor sequences and remove low‐quality reads from the raw sequencing data (FASTQ files). After that, Hisat2 v2.2.1 was used to align these clean reads with the Human Genome Reference GRCh38. DESeq2 was used for differential expression analysis, while g: Profiler was used for GO enrichment analysis.

COc1ccc(C2=N[C@H](c3ccc(Cl)cc3)[C@H](c3ccc(Cl)cc3)N2C(=O)N2CCN(CC(=O)NCCCCCCCCOc3cccc4c3C(=O)N(C3CCC(=O)NC3=O)C4=O)C(=O)C2)c(OC(C)C)c1 (stereo in doubt) [CL144]
differentially expressed genes (DEGs) versus Con: 6932

COc1ccc(C2=N[C@@H](c3ccc(Cl)cc3)[C@@H](c3ccc(Cl)cc3)N2C(=O)N2CCNC(=O)C2)c(OC(C)C)c1 [Nutlin-3, reference compound]
differentially expressed genes (DEGs) versus Con: 7745
